{"source": "PubChem BioAssay AID504761 (Drosophila RNAi Screening Center, 2011)", "aim": "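Fly genes whose silencing reduces dengue virus type 2 infection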 (primary screen)", "cells": "D.Mel-2 cells from Drosophila", "reagent": "long dsRNA against Drosophila genes", "challenge": "infection with dengue virus type 2; dose and infection time not stated", "detection": "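Cells stained for dengue envelope protein and imaged; percent of infected cells per well on duplicate plates, ranked by infection, with stained nuclei counted for cell number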", "direction": "infection score: higher = more virus-infected cells; cell count: higher = more cells in the well", "hit rule": "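Low infection ranks in the two replicates (chance level up to 0.065) followed by a retest with a 1.5-fold or larger significant decrease, p below 0.05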", "calls": "active = confirmed: knock-down lowers infection; inactive = not picked or not confirmed", "note": "The deposit covers about 22,000 reagents; shown is an unselected part of those with a known target gene and a result. In the full data, 116 (0.52%) are marked active. 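Calls depend on retest data that are not deposited; infection was ranked per plate without normalising between plates; the unit of the infection score is not given.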 The raw values are shown without normalisation. Unmarked entries are inactive. Names joined by + are all predicted targets of the reagent. Further read-outs or replicates are left out here. Not given: the amount of reagent, the time to read-out."}
{"target": "Sems", "amplicon": "DRSC11626", "infection score, replicate 1": 8.06, "cell count, replicate 1": 6439}
{"target": "Sems", "amplicon": "DRSC25887", "infection score, replicate 1": 12.5, "cell count, replicate 1": 5924}
{"target": "Cchl", "amplicon": "DRSC15949", "infection score, replicate 1": 4.12, "cell count, replicate 1": 5995}
{"target": "CG14607", "amplicon": "DRSC12551", "infection score, replicate 1": 4.07, "cell count, replicate 1": 6287}
{"target": "l(2)34Fc", "amplicon": "DRSC01910", "cell count, replicate 1": 501}
{"target": "Sgs3", "amplicon": "DRSC11280", "infection score, replicate 1": 4.04, "cell count, replicate 1": 5920}
{"target": "Sgs3", "amplicon": "DRSC28210", "infection score, replicate 1": 18.5, "cell count, replicate 1": 1457}
{"target": "CG33969 + fbl", "amplicon": "DRSC11886", "infection score, replicate 1": 11.8, "cell count, replicate 1": 5973}
{"target": "CG8635", "amplicon": "DRSC07226", "infection score, replicate 1": 8.18, "cell count, replicate 1": 6769}
{"target": "CG8635", "amplicon": "DRSC29143", "infection score, replicate 1": 14.9, "cell count, replicate 1": 4765}
{"target": "RanBPM", "amplicon": "DRSC06079", "infection score, replicate 1": 14, "cell count, replicate 1": 6226}
{"target": "RanBPM", "amplicon": "DRSC25174", "infection score, replicate 1": 2.18, "cell count, replicate 1": 6371}

Already shown: entries from further up.
{"target": "Cchl", "amplicon": "DRSC15949", "infection score, replicate 1": 4.12, "cell count, replicate 1": 5995}
{"target": "CG14607", "amplicon": "DRSC12551", "infection score, replicate 1": 4.07, "cell count, replicate 1": 6287}

The listing continues:
{"target": "OtopLc", "amplicon": "DRSC18082", "infection score, replicate 1": 2.17, "cell count, replicate 1": 6460}
{"target": "OtopLc", "amplicon": "DRSC18083", "infection score, replicate 1": 8.19, "cell count, replicate 1": 6474}
{"target": "OtopLc", "amplicon": "DRSC18132", "infection score, replicate 1": 0.57, "cell count, replicate 1": 6671}
{"target": "OtopLc", "amplicon": "DRSC25719", "infection score, replicate 1": 1.27, "cell count, replicate 1": 6543}
{"target": "OtopLc", "amplicon": "DRSC25756", "infection score, replicate 1": 2.95, "cell count, replicate 1": 6783}
{"target": "OtopLc", "amplicon": "DRSC28477", "infection score, replicate 1": 2.09, "cell count, replicate 1": 623}
